Earlier results as cited in publication PMC7941644, “Identification and Development of Therapeutics for COVID-19” (ArXiv, 2021).

System: COVID-19
Design: key: A grade of A indicates that a treatment is considered effective; B that all or most RCTs have shown positive results; C that RCT data are not yet available; D that multiple RCTs have produced negative results
Conditions: not given

| Compound | Grade (STORM) |
| --- | --- |
| C[C@@H]1C[C@H]2[C@@H]3CCC4=CC(=O)C=C[C@]4(C)[C@@]3(F)[C@@H](O)C[C@]2(C)[C@@]1(O)C(=O)CO [dexamethasone, 9α-fluoro-16α-methylprednisolone] | A |
| COCCCC/C(=N\OCCN)c1ccc(C(F)(F)F)cc1 [fluvoxamine] | B |

Same assay, conditions: rating by CSTL STORM; table updated August 20, 2021

| Compound | Grade (STORM) |
| --- | --- |
| NC(=O)c1nc(F)cnc1O [favipiravir, 6-fluoro-3-hydroxy-2-pyrazinecarboxamide] | D |
| CC[C@H](C)[C@H]1O[C@]2(CC[C@@H]1C)C[C@@H]1C[C@@H](C/C=C(\C)[C@@H](O[C@H]3C[C@H](OC)[C@@H](O[C@H]4C[C@H](OC)[C@@H](O)[C@H](C)O4)[C@H](C)O3)[C@@H](C)/C=C/C=C3\CO[C@@H]4[C@H](O)C(C)=C[C@@H](C(=O)O1)[C@]34O)O2 [ivermectin] | D |
| CCC(CC)COC(=O)[C@H](C)N[P@](=O)(OC[C@H]1O[C@@](C#N)(c2ccc3c(N)ncnn23)[C@H](O)[C@@H]1O)Oc1ccccc1 [remdesivir] | A |
| TCZ: humanized monoclonal antibody that binds the insoluble and soluble receptor of IL-6 | A |
